Compound potency records, mixed from different reports. Data source: NIAID ChemDB in PubChem.

Common to all: tests in culture; organism: Candida albicans; endpoint: MIC

An empty or dashed field is not shown. Neighbouring rows are from separate reports. Two numbers with a dash give a range or band.

CCN1C2=NC[C@@H](CC3CCCCC3)N2C[C@@H]1Cc1ccccc1 ; strain or isolate: ATCC 10231 ; result: >64 µg/mL
CCCCC/C=C\C1=N[C@H]1C(=O)OC ; strain or isolate: UCD-FR1 ; result: >64 µg/mL
Cc1cc(NC(=O)c2ccccc2NC(=O)COc2ccc(Cl)cc2Cl)no1 ; strain or isolate: ATCC 10231 ; result: >100 µg/mL
COC(=O)[C@H]1C[C@@](CC(C)C)(C(=O)OC)N(C(=S)NC(=O)c2ccccc2)[C@H]1c1ccccc1 ; strain or isolate: ATCC 90028 ; result: 75 µg/mL
CCc1ccc(-c2nc3cc(NC(=O)Cc4ccc(Cl)cc4)ccc3o2)cc1 ; strain or isolate: ATCC 10145 ; result: 50 µg/mL
CCn1nc(-c2cc(C)on2)cc1C ; result: >200 µM
COc1cccc(C(=O)/C=C/c2ccncc2)c1 ; result: 17.6 µg/mL
C[C@H]1[C@H](O)[C@@H](C)/C=C/C=C/C=C/C=C/C=C/C=C/C=C/[C@H](O[C@@H]2O[C@H](C)[C@@H](O)[C@H](N)[C@@H]2O)C[C@@H]2O[C@](O)(C[C@@H](O)C[C@@H](O)CC[C@H](O)[C@@H](O)C[C@@H](O)CC(=O)O[C@H]1C)C[C@H](O)[C@H]2C(=O)O ; strain or isolate: ATCC 18804 and ATCC 28815 26555 24433 64544 64550 ; result: 0.39–1.56 µg/mL
Cc1cc(NC(=O)c2ccc(NC(=O)COc3cccc(Cl)c3Cl)cc2)no1 ; strain or isolate: ATCC 10231 ; result: >100 µg/mL
Cc1ccc(-c2nc3cc(C)ccc3o2)c(C)c1 ; result: 25 µg/mL
Cc1cc(NC(=O)c2cccc(NC(=O)COc3ccccc3)c2)no1 ; strain or isolate: ATCC 10231 ; result: >100 µg/mL
CCn1nc(C)c(N=O)c1-c1cc(C)on1 ; result: 19 µM
Clc1ccc2oc(Cc3ccc(Br)cc3)nc2c1 ; result: 25 µg/mL
Cc1ccc(CSc2cc(C(N)=S)ccn2)cc1 ; strain or isolate: 44859 ; result: 31.25 µM
O=C(Nc1ccccc1O)c1ccc([N+](=O)[O-])cc1 ; result: 25 µg/mL
Cc1c(O)cccc1C(=O)N[C@@H](CSc1ccccc1)[C@H](O)CN1C[C@H]2CCCC[C@H]2C[C@H]1C(=O)NC(C)(C)C ; strain or isolate: I103 ; result: >64 µg/mL
CCn1nc(C)c([N+](=O)[O-])c1-c1cc(C)on1 ; result: >200 µM
COc1ccc(C(=O)/C=C/c2ccccn2)cc1 ; result: 15.9 µg/mL
CC[C@@H]([C@H](C)O)n1ncn(-c2ccc(N3CCN(c4ccc(OC[C@@H]5CO[C@@](Cn6cncn6)(c6ccc(F)cc6F)C5)cc4)CC3)cc2)c1=O ; strain or isolate: Isolate 3474 ; result: 0.06 µg/mL
O[C@](Cn1cncn1)(Cn1cnc(/C=C/c2ccc(OCC(F)(F)C(F)F)cc2)n1)c1ccc(F)cc1F ; strain or isolate: CA033 ; result: 1.8 µM
CCCCCCCCCCCC[n+]1cccc(/C=C/C(=O)c2ccc(OC)cc2)c1 ; result: <7.73 µg/mL
CCSc1nc(Cl)c(C#N)c(-c2ccco2)n1 ; result: >100 µg/mL
COc1ccc(C[C@H](N)C(=O)N[C@H]2[C@@H](O)[C@H](n3cnc4c(N)ncnc43)O[C@@H]2C(=O)O)cc1 ; strain or isolate: FP-614 ; result: 0.8 µg/mL
CC(C)(C)C1CCC(CN2C3=NC[C@H](CC4CCCCC4)N3C[C@H]2CC2CCCCC2)CC1 ; strain or isolate: ATCC 10231 ; result: 5–8 µg/mL
Cc1c(-c2nc3cc(C(C)(C)C)cc(C(C)(C)C)c3o2)[nH]c2ccccc12 ; strain or isolate: ATCC 44859 ; result: >500 µM
CCCCCCCCCC[n+]1ccc(/C=C/C(=O)c2ccccc2OC)cc1 ; result: <6.8 µg/mL
COc1ccc(C(=O)Nc2ccccc2O)cc1 ; result: 25 µg/mL
CC(C)(C)C1CCC(CN2C3=NC[C@H](CC4CCCCC4)N3C[C@@H]2C2CCCCC2)CC1 ; strain or isolate: ATCC 10231 ; result: 8–16 µg/mL
O=C(Nc1cc([N+](=O)[O-])ccc1O)c1ccc(Cl)cc1 ; result: 25 µg/mL
CCCCCCCCCCCCC/C=C\C1=NC1C(=O)OC ; strain or isolate: 96-489 ; result: 2–3 µg/mL
CC(C)(C)C1CCC(CN2C3=NC[C@@H](CC4CCCCC4)N3C[C@H]2C2CCCCC2)CC1 ; strain or isolate: ATCC 10231 ; result: 10–16 µg/mL
Cc1onc(-c2nn(C)c(C)c2[N+](=O)[O-])c1[N+](=O)[O-] ; result: >200 µM
CC(C)(C)C1CCC(CN2C3=NC[C@@H](C4CCCCC4)N3C[C@@H]2C2CCCCC2)CC1 ; strain or isolate: ATCC 10231 ; result: 18–32 µg/mL
COc1ccccc1C(=O)Nc1cc(Cl)ccc1O ; result: 12.5 µg/mL
C1CCC(C[C@H]2CN3C(=NC[C@H]3C3CCCCC3)N2CCC23CC4CC(CC(C4)C2)C3)CC1 ; strain or isolate: ATCC 10231 ; result: 3–4 µg/mL
O=C(Nc1cc(Cl)ccc1O)c1ccc(F)cc1 ; result: 25 µg/mL
CCCCCCCCCCCC[n+]1cccc(/C=C/C(=O)c2cccc(OC)c2)c1 ; result: <6.8 µg/mL
Cc1cc(NC(=O)c2cccc(NC(=O)COc3cccc(Cl)c3Cl)c2)no1 ; strain or isolate: ATCC 10231 ; result: >100 µg/mL
NC(=S)c1ccnc(SCc2c(F)cccc2Cl)c1 ; strain or isolate: 44859 ; result: >500 µM
COC(=O)[C@]1(C)[C@@H]2C(=O)N(C)C(=O)[C@@H]2[C@H](c2ccccc2I)N1C(=S)NC(=O)c1ccccc1 ; strain or isolate: ATCC 90028 ; result: 100 µg/mL
Cc1ccc(OCC(=O)Nc2ccc(C(=O)Nc3cc(C)on3)cc2)cc1 ; strain or isolate: ATCC 10231 ; result: >100 µg/mL
CCSc1nc(Cl)c(C#N)c(-c2ccc(F)cc2F)n1 ; result: 50 µg/mL
C1CCC(C[C@H]2CN3C(=NC[C@@H]3C3CCCCC3)N2CCC23CC4CC(CC(C4)C2)C3)CC1 ; strain or isolate: ATCC 10231 ; result: >64 µg/mL
CCCCCCCCCC[n+]1ccc(/C=C/C(=O)c2cccc(OC)c2)cc1 ; result: <7.5 µg/mL
Cc1cc(NC(=O)c2ccc(NC(=O)COc3ccc(Cl)cc3)cc2)no1 ; strain or isolate: ATCC 10231 ; result: >100 µg/mL
CCCCCCCCCC[n+]1cccc(/C=C/C(=O)c2ccccc2OC)c1 ; result: <7.34 µg/mL
COc1ccc(CCN2C3=NC[C@H](Cc4ccccc4)N3C[C@@H]2Cc2ccccc2)cc1OC ; strain or isolate: ATCC 10231 ; result: >250 µg/mL
COc1ccc(-c2nc3ccccc3o2)cc1 ; result: 100 µg/mL
CCCCCCCC[n+]1cccc(/C=C/C(=O)c2ccc(OC)cc2)c1 ; result: <7.26 µg/mL
CC(C)(C)C1CCC(CN2C3=NC[C@@H](CC4CCCCC4)N3C[C@@H]2CC2CCCCC2)CC1 ; strain or isolate: ATCC 10231 ; result: 3–4 µg/mL
CCCCCCCCCCCCC/C=C\C1=N[C@H]1C(=O)OC ; strain or isolate: 96-489 ; result: 4 µg/mL
COc1cc(O)c2c(c1)C(=O)c1c(cc3c(c1O)-c1c(cc(C)c(C(=O)NC(CO)C(=O)O)c1O)[C@H](OC1OC(C)C(O)C(OC4OCC(O)C(O)C4O)C1O)C3O)C2=O ; strain or isolate: A25578 (flucytosine-resistant) ; result: 4 µg/mL
CCCn1nc(-c2cc(C)on2)c(N=O)c1C ; result: 22 µM
COc1ccc(CSc2cc(C(N)=S)ccn2)cc1 ; strain or isolate: 44859 ; result: 125 µM
COC(=O)[C@H]1C[C@@](Cc2ccccc2)(C(=O)OC)N(C(=S)NC(=O)c2ccccc2)[C@H]1c1ccccc1 ; strain or isolate: ATCC 90028 ; result: 100 µg/mL
CC(C)CC(NC(=O)c1nc2c(C(C)(C)C)cc(C(C)(C)C)cc2o1)C(=O)O ; strain or isolate: ATCC 44859 ; result: >500 µM
COc1cc(O)c2c(c1)C(=O)c1c(cc3c(c1O)-c1c(cc(C)c(C(=O)NC(CO)C(=O)O)c1O)[C@H](OC1OC(C)C(O)C(OC4OCC(O)C(O)C4O)C1O)C3O)C2=O ; strain or isolate: ATCC 38247 ; result: 1.6 µg/mL
COc1ccc(C(=O)/C=C/c2cccnc2)cc1 ; result: 32.5 µg/mL

Repeating the final 4 entries:

smiles	strain or isolate	result
COC(=O)[C@H]1C[C@@](Cc2ccccc2)(C(=O)OC)N(C(=S)NC(=O)c2ccccc2)[C@H]1c1ccccc1	ATCC 90028	100 µg/mL
CC(C)CC(NC(=O)c1nc2c(C(C)(C)C)cc(C(C)(C)C)cc2o1)C(=O)O	ATCC 44859	>500 µM
COc1cc(O)c2c(c1)C(=O)c1c(cc3c(c1O)-c1c(cc(C)c(C(=O)NC(CO)C(=O)O)c1O)[C@H](OC1OC(C)C(O)C(OC4OCC(O)C(O)C4O)C1O)C3O)C2=O	ATCC 38247	1.6 µg/mL
COc1ccc(C(=O)/C=C/c2cccnc2)cc1		32.5 µg/mL